IC50 data for four molecules are collected here from PMC6357153 (Viruses, 2019).

The term IC50 denotes the point on the concentration scale where inhibition reaches its midpoint. Higher therefore signals lower potency.

Structures are written as SMILES.

In the assay the test system is MERS-CoV pseudovirus.
Consider `CC[C@H](C)[C@H](NC(=O)[C@H](Cc1ccc(O)cc1)NC(=O)[C@H](CO)NC(=O)[C@H](CC(=O)O)NC(=O)[C@H](CC(N)=O)NC(=O)[C@H](CC(C)C)NC(=O)[C@H](CCC(N)=O)NC(=O)[C@H](CCCCN)NC(=O)[C@@H](NC(=O)[C@@H](NC(=O)[C@H](CCC(=O)O)NC(=O)[C@H](CCC(N)=O)NC(=O)[C@H](CC(C)C)NC(=O)[C@H](CCSC)NC(=O)[C@H](C)NC(=O)[C@H](CCSC)NC(=O)[C@H](CCC(=O)O)NC(=O)[C@H](CC(=O)O)NC(=O)[C@H](CO)NC(=O)[C@H](CC(C)C)NC(=O)[C@H](CC(=O)O)NC(=O)[C@@H](N)CC(C)C)C(C)C)C(C)C)C(=O)N[C@@H](CC(=O)O)C(=O)N[C@@H](CC(C)C)C(=O)N[C@@H](CCCCN)C(=O)N[C@@H](CCC(=O)O)C(=O)N[C@@H](CC(C)C)C(=O)NCC(=O)N[C@@H](CC(N)=O)C(=O)N[C@@H](Cc1ccc(O)cc1)C(=O)N[C@H](C(=O)N[C@@H](Cc1ccc(O)cc1)C(=O)N[C@@H](Cc1ccc(O)cc1)C(=O)N[C@@H](CC(N)=O)C(=O)N[C@@H](CCCCN)C(=O)N[C@@H](Cc1c[nH]c2ccccc12)C(=O)O)[C@@H](C)O` [HKU4-HR2P3], for which the IC50 is 0.48 µM.

`CC[C@H](C)[C@H](NC(=O)[C@H](Cc1ccc(O)cc1)NC(=O)[C@H](CO)NC(=O)[C@H](CC(=O)O)NC(=O)[C@H](CC(N)=O)NC(=O)[C@H](CC(C)C)NC(=O)[C@H](CCC(N)=O)NC(=O)[C@H](CCCCN)NC(=O)[C@@H](NC(=O)[C@@H](NC(=O)[C@H](CCC(=O)O)NC(=O)[C@H](CCC(N)=O)NC(=O)[C@H](CC(C)C)NC(=O)[C@H](CCSC)NC(=O)[C@H](C)NC(=O)[C@H](CCSC)NC(=O)[C@H](CCC(=O)O)NC(=O)[C@H](CC(=O)O)NC(=O)[C@H](CO)NC(=O)[C@H](CC(C)C)NC(=O)[C@H](CC(=O)O)NC(=O)[C@H](CC(C)C)NC(=O)[C@H](CC(C)C)NC(=O)[C@@H](NC(=O)[C@@H](NC(=O)[C@H](CC(N)=O)NC(=O)[C@@H](NC(=O)[C@H](CCCCN)NC(=O)[C@H](CO)NC(=O)[C@@H](NC(=O)[C@H](CCC(=O)O)NC(=O)[C@H](C)NC(=O)[C@H](Cc1ccccc1)NC(=O)[C@H](CC(N)=O)NC(=O)[C@@H]1CCCN1C(=O)CN)[C@@H](C)CC)[C@@H](C)CC)[C@@H](C)O)[C@@H](C)O)C(C)C)C(C)C)C(=O)O` [HKU4-HR2P1] gave an IC50 of 2.15 µM. The value for `CC[C@H](C)[C@H](NC(=O)[C@H](Cc1ccc(O)cc1)NC(=O)[C@H](CO)NC(=O)[C@H](CC(=O)O)NC(=O)[C@H](CC(N)=O)NC(=O)[C@H](CC(C)C)NC(=O)[C@H](CCC(N)=O)NC(=O)[C@H](CCCCN)NC(=O)[C@@H](NC(=O)[C@@H](NC(=O)[C@H](CCC(=O)O)NC(=O)[C@H](CCC(N)=O)NC(=O)[C@H](CC(C)C)NC(=O)[C@H](CCSC)NC(=O)[C@H](C)NC(=O)[C@H](CCSC)NC(=O)[C@H](CCC(=O)O)NC(=O)[C@H](CC(=O)O)NC(=O)[C@H](CO)NC(=O)[C@H](CC(C)C)NC(=O)[C@H](CC(=O)O)NC(=O)[C@H](CC(C)C)NC(=O)[C@H](CC(C)C)NC(=O)[C@@H](NC(=O)[C@@H](NC(=O)[C@H](CC(N)=O)NC(=O)[C@@H](NC(=O)[C@H](CCCCN)NC(=O)[C@H](CO)NC(=O)[C@@H](NC(=O)[C@@H](N)CCC(=O)O)[C@@H](C)CC)[C@@H](C)CC)[C@@H](C)O)[C@@H](C)O)C(C)C)C(C)C)C(=O)N[C@@H](CC(=O)O)C(=O)N[C@@H](CC(C)C)C(=O)N[C@@H](CCCCN)C(=O)N[C@@H](CCC(=O)O)C(=O)N[C@@H](CC(C)C)C(=O)O` [HKU4-HR2P2] was 0.34 µM.

In turn, `CC[C@H](C)[C@H](NC(=O)[C@H](Cc1ccc(O)cc1)NC(=O)[C@H](CO)NC(=O)[C@H](CCC(=O)O)NC(=O)[C@H](CC(N)=O)NC(=O)[C@H](CC(C)C)NC(=O)[C@H](C)NC(=O)[C@H](CCCCN)NC(=O)[C@@H](NC(=O)[C@@H](NC(=O)[C@H](CCC(N)=O)NC(=O)[C@H](CCC(N)=O)NC(=O)[C@H](CC(C)C)NC(=O)[C@H](CO)NC(=O)[C@H](CC(C)C)NC(=O)[C@H](CCSC)NC(=O)[C@H](CCC(=O)O)NC(=O)[C@H](Cc1ccc(O)cc1)NC(=O)[C@@H](NC(=O)[C@H](CC(C)C)NC(=O)[C@H](CC(=O)O)NC(=O)[C@H](CC(C)C)NC(=O)[C@H](CC(C)C)NC(=O)[C@@H](NC(=O)[C@@H](NC(=O)[C@H](CC(N)=O)NC(=O)[C@@H](NC(=O)[C@H](CCC(N)=O)NC(=O)[C@@H](NC(=O)[C@H](CC(C)C)NC(=O)[C@@H](N)CO)[C@@H](C)O)[C@@H](C)CC)[C@@H](C)O)[C@@H](C)O)[C@@H](C)O)C(C)C)C(C)C)C(=O)N[C@@H](CC(=O)O)C(=O)N[C@@H](CC(C)C)C(=O)N[C@@H](CCCCN)C(=O)N[C@@H](CCC(=O)O)C(=O)N[C@@H](CC(C)C)C(=O)O` [MERS-HR2P, reference compound] gave an IC50 of 1.14 µM.
